Experimental data as given in paper PMC7542365 (mBio, 2020).

Biological target: A/Brevig Mission/1/1918 H1N1 NA, thrombin-digested (for crystals) (influenza A virus A/Brevig Mission/1/1918 (H1N1))
Assay: crystal structure

Substance “A/Brevig Mission/1/1918 H1N1 NA, thrombin-digested (for crystals) (domain or fragment)” has a stoichiometry N of 4.
